Test results as given in the supplement of paper PMC9931576.
Substitutions are numbered along the chain they refer to. Human monoclonal antibodies against the spike receptor-binding domain (heavy:light variable regions). IC50 against pseudoviruses bearing the spike of naturally observed variants; lower = stronger; >10 µg/ml means not reached at the top dose. No active / inactive call. The stated detection limit is 0.0005 µg/ml; values near or below 0.001 µg/ml lie at the floor of the assay.

B1: XGv-152 (protein)
chain 1: QVQLVQSGAAVKEPGSSVKVSCKTSGGTFRNYAINWVRQAPGQGLEWMGGIIRIFDRTDYAQKFQGRITIIADETTNTAYMELRSLRSEDTAVYYCARGRALTRGILATMTMDVWGQGTTVTVSS
chain 2: DIVMTQSPDSLAVSLGERATINCKSSQSLLYSSNNKNFLGWYQQKPGQPPKLLIYWASTRESGVPDRFSGSGSGTDFTLTISSLQAEDVATYYCHQYYSMPLTFGGGTKVEIK
B2: XGv-232 (protein)
chain 1: QVQLVQSGAEVKKPGSSVKVSCKASGGTFSRYAISWVRQAPGQGLEWMGRIIPIFSISNYAQKFQGRVTITADKSTSTAYMELSSLRSEDTAVYYCARGPYSYDSGSYQLDYWGQGTLVTVSS
chain 2: DIQMTQSPSSLSASVGDRVTITCRASQSISSYLNWYQQKPGKAPQLLIYAASSLQSGVPSRFSGSGSGSDFTLTISSLQPEDFATYYCQQSHSTPRTFGQGTKVEIK
B3: XGv-158 (protein)
chain 1: QVQLVQSGAEVKKPGASVKVSCKTSGYTFSSYGISWVRQAPGQGLEWMGWISSYNGNTKYAQKLQGRVTMTTDTSTTTAYMELRSLTLDDTAVYYCARSLGLWFGVDYWGQGTLVTVSS
chain 2: NFMLTQPHSVSESPGETVTISCTGSSGSIASNYVQWYQQRPGSAPTTVIYEDNQRPSGVPDRFSGSIDSSSNSASLTISGLKTEDEADYYCQSYDGSNVIFGGGTKLTVL
B4: XGv-265 (protein)
chain 1: QITLKESGPTLVKPTQTLTLTCNFSGFSLNTYGVGVGWIRQPPGKALEWLALIYWDGDERYGPFFKNKVTIAKDTSKNQVVLTMTNMDPVDTATYYCARHLIPTIFDYWGQGTLVTVSS
chain 2: QSALTQPASVSGSPGQSITISCTGTSSDVGGSNYVSWYQHHPDRAPKLLIYEVTNRPSGVSNRFSGSKSANTASLTISGLQAEDEADYYCSSYTTTSTHILFGGGTKLTV
B5: XGv-124 (protein)
chain 1: EVQLVESGGGLVKPGGSLRLSCAASGFTFNRYTLNWVRQAPGKGLEWVSSISSNSEYISYADSVKGRFTLSRDNAKNSMFLQMNSLRAEDTAVYYCARASPYDILTEGAFDYWGQGTLVTVSS
chain 2: EIVMTQSPATLSVSPGERVTLSCRASLSVSTNLAWYQQKPGQAPRLLIYGASTRATGLPARFSGSGSGTEFTLTITSLQSEDFAVYYCQQYHEWPTYTFGQGTKVEIK
B6: XGv-198 (protein)
chain 1: QVQLVQSGAEVKKPGSSVKVSCKASGGTFSSYTISWVRQAPGQGLEWMGKIFPVLGVANYAQNFQGRVTLTADKSTRTAFMELTSLRSDDTAVYYCARDFTYRTNYDAFDLWGQGTVVTVSS
chain 2: QSVLTQPPSVSGAPGQRVTISCTGSNSNIGAGYDVHWYQQLPGTAPKLLIYGNNNRPSGVPDRFSGSRSGTSASLAITGLQAEDEADYYCQSYDSSLTGVIFGGGTKLTVL
B7: XGv-212 (protein)
chain 1: QVQLVQSGTEVKKPGSSVKVSCKASGGTFSNTISWVRQAPGQGLEWMGRIIPILGVANYAQNFQGRVTISADKSTNTAYLELSSLRSEDTAVYFCARDNGYNDWYFDLWGRGTLVTVSS
chain 2: B6 chain 2 with N54T, R68K, G70D, T98S, G99D, V100S, I101V
B8: XGv-174 (protein)
chain 1: QVQLVESGGGVVQPGRSLRLSCAASGFIFSSYVMHWVRQAPGKGLEWVALISYDGRRQYYADSVKGRFTISRANTNNTLFLHMNSLRTEDTAVYYCTTGDDPYRSAWYTQFDYWGQGALVTVSS
chain 2: QSVLTQPPSASGTPGQKVTISCSGSSSNIGSNSVNWYQQVPGTAPKLLIYDNTQRPSGVPDRFSGSKSATSASLAISGLQSEDEADYYCAAWDDSLHVVFGGGTKLTV
B9: XGv-175 (protein)
chain 1: B8 chain 1 with R56S, R57S, Q58K, T75A, N76K, F80Y, H82Q, A118T, L119Q
chain 2: QSVLTQPPSASGTPGQKVTISCSGSSSNIGSNTVNWYQQVPGTAPKLLIYDNTQRPSGVPDRFSGSKSATSASLAISGLQSEDEADYYCAAWDDSLHVVFGGGTKLTVL
B10: XGv-252 (protein)
chain 1: EVQLVESGGGLVQPGGSLRLSCAASGFTFSTYDMHWVRQTTGKGLEWVSVIGTSGDTYYSDSVKGRFTISRENARHSLYLQMNSLRAGDTAVYYCARDSGTTVTVLDFWGQGTLVTVSS
chain 2: DIQMTQSPPSLSASVGDRVTITCRTSQSIRSYLNWFQQKPGKAPKLLIYAASNLQSGVPSRFSGSGSGTDFTLTISSLQPEDFATYYCQQSYSNPQITFGPGTKVDIK
B11: XGv-225 (protein)
chain 1: EVQLVESGGGFVQSGGSLRLSCAASGFTFSNYWMSWVRQAPGKGLEWVANIKQDGSETYYVDSVKGRFTISRDNALNSLFLQMHSLRADDTAVYYCARDLGILWFGELFRGVGRGQGTLVTVSS
chain 2: DIQMTQSPSSLSASVGDRVTITCRASQGISVSLAWYQQKPGTAPKLLLYAASTLESGVPSRFSGSGSGTDYTLTISSLQPEDFATYYCQQYYTIPRTFGQGTRVDIK
B12: XGv-264 (protein)
chain 1: QITLKESGPTLVKPTQTLTLTCAFSGFSLNTGGAGVGWIRQPPGKALEWLALIYWDGDKRYNPSLKSRLAIIMDTSKNRVVLTMTNMDPVDTATYYCAHHKIEYIFDYWGQGTLVAVSS
chain 2: QSALTQPASVSGSPGQSITVSCTGTSSDLGNFQYVSWYQHHPGKAPKLLIYEVSHRPSGVSNRFSGSKSGNTASLTISGLQAEDEADYYCCSYTTTTIPVAFGGGTRLTVL

Biological target: SARS-CoV-2 Omicron BA.1 spike pseudovirus
Experiment: pseudovirus neutralization IC50; higher = weaker neutralization
Procedure: (§1)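 Single-round VSV luciferase pseudovirus mixed with antibody dilutions for 1 h and put on Huh-7 cells for about a day; IC50 from the dose curve.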

Binder	pseudovirus neutralization IC50 [µg/mL]
B1	1.02
B2	> 10
B3	> 10
B4	> 10
B5	2.29
B6	0.7
B7	0.189
B8	2.21
B9	0.0923
B10	6.55
B11	0.562
B12	0.00164

Biological target: SARS-CoV-2 Omicron BA.2 spike pseudovirus
Experiment: as above
Procedure: as §1

Binder	pseudovirus neutralization IC50 [µg/mL]
B1	1.31
B2	> 10
B3	> 10
B4	0.0449
B5	2.16
B6	0.565
B7	0.229
B8	1.74
B9	0.0849
B10	4.82
B11	0.572
B12	0.0039

Biological target: SARS-CoV-2 Omicron BA.2.75 spike pseudovirus
Experiment: as above
Procedure: as §1

Binder	pseudovirus neutralization IC50 [µg/mL]
B1	1.86
B2	> 10
B3	> 10
B4	> 10
B5	3.75
B6	0.421
B7	0.251
B8	1.54
B9	0.241
B10	4.81
B11	> 10
B12	0.00348

Biological target: SARS-CoV-2 Omicron BA.5 spike pseudovirus
Experiment: as above
Procedure: as §1

Binder	pseudovirus neutralization IC50 [µg/mL]
B1	> 10
B2	> 10
B3	> 10
B4	0.0512
B5	2.5
B6	> 10
B7	0.162
B8	> 10
B9	> 10
B10	5.19
B11	0.468
B12	0.00289

Biological target: SARS-CoV-2 Omicron BQ.1.1 spike pseudovirus
Experiment: as above
Procedure: as §1

Binder	pseudovirus neutralization IC50 [µg/mL]
B1	> 10
B2	> 10
B3	> 10
B4	> 10
B5	2.42
B6	> 10
B7	> 10
B8	> 10
B9	> 10
B10	5.91
B11	> 10
B12	> 10

Biological target: SARS-CoV-2 Omicron XBB spike pseudovirus
Experiment: as above
Procedure: as §1

Binder	pseudovirus neutralization IC50 [µg/mL]
B1	> 10
B2	> 10
B3	> 10
B4	> 10
B5	2.1
B6	> 10
B7	0.444
B8	> 10
B9	> 10
B10	4.38
B11	> 10
B12	> 10

Biological target: SARS-CoV-2 early D614G spike pseudovirus
Experiment: as above
Procedure: as §1

Binder	pseudovirus neutralization IC50 [µg/mL]
B1	0.0358
B2	0.00107
B3	0.354
B4	0.0103
B5	0.736
B6	0.0938
B7	0.162
B8	0.017
B9	0.0251
B10	2.86
B11	0.0726
B12	0.00167
